Anti-infective test results gathered from many reports (values: NIAID ChemDB through PubChem).

All rows: toxicity to cultured cells; cell line: HEL; read-out: CC50

Lines come from different laboratories, so protocols vary. CCn: concentration that lowers growth or viability of the cells by n%.

| SMILES | value |
|---|---|
| CC(C)c1ccc(C(C)C)c(CS(=O)c2cccc[n+]2[O-])c1 | 11 µg/mL |
| CC1(C)[C@@H](CCO)C[C@H]1n1cnc2c(=O)[nH]cnc21 | >50 µg/mL |
| O=S(=O)(Cc1ccc(Cl)c(Cl)c1)c1cccc[n+]1[O-] | 2.9 µg/mL |
| CCCCCCCC/C=C/CCCCCCCC(=O)OCC(CO)OCn1cnc2c(=O)[nH]c(N)nc21 | 135 µM |
| CN1c2ccccc2C(C)(C)C12C=Cc1cc([N+](=O)[O-])ccc1O2 | 16.2 µM |
| C1CCC2(C1)CCCN2CC12CC3CC(CC(C3)C1)C2 | 200 µg/mL |
| O=c1[nH]c(=O)n([C@H]2C[C@H](O)[C@@H](CO)O2)cc1-c1ccc(Br)s1 | 155 µg/mL |
| Cc1ccc(C)c(C(C(N)=O)S(=O)(=O)c2cccc[n+]2[O-])c1 | 15.6 µg/mL |
| O=c1[nH]c(=O)n([C@H]2C[C@H](O)[C@@H](CO)O2)cc1-c1ccco1 | 100 µg/mL |
| Nc1nc2c(ncn2COC(CO)CO)c(=O)[nH]1 | 230 µM |
| CN(C)CC1CCC(C23CC4CC(CC(C4)C2)C3)[C@H]1c1ccccc1 | >50 µg/mL |
| Cc1ccc(C)c(C(Cl)S(=O)(=O)c2c(Cl)ccc[n+]2[O-])c1 | 15 µg/mL |
| Nc1ccn(C[C@@H](CO)OCP(=O)(O)O)c(=O)n1 | 236.3 µM |
| Cn1ccnc1-c1cn([C@H]2C[C@H](O)[C@@H](CO)O2)c(=O)[nH]c1=O | >200 µg/mL |
| Nc1nc2c(ncn2[C@@H]2O[C@H](CO)[C@H]2CO)c(=O)[nH]1 | 189 µg/mL |
| O=C(COc1cccc2ccccc12)NN=Cc1cccc([N+](=O)[O-])c1 | 61.2 µg/mL |
| CC(C)(C)C1CCCN1CC12CC3CC(CC(C3)C1)C2 | >50 µg/mL |
| O=c1[nH]c(=O)n([C@H]2C[C@H](O)[C@@H](CO)O2)cc1/C=C/Br | >601 µM |
| Nc1nc2c(ncn2COCCO)c(=O)[nH]1 | 169 µg/mL |
| [O-][n+]1cccc(Cl)c1SCc1ccccc1 | >100 µg/mL |
| CCCCCCCCCCCCc1cc2cn([C@H]3C[C@H](O)[C@@H](CO)O3)c(=O)nc2[nH]1 | >200 µM |
| Cc1ccc[n+]([O-])c1S(=O)(=O)C(C)c1ccccc1Cl | 38 µg/mL |
| Cc1ccc(-c2cc3cn([C@H]4C[C@H](O)[C@@H](CO)O4)c(=O)nc3o2)cc1 | >200 µM |
| Cc1ccc(C)c(CS(=O)c2ccc(Cl)c[n+]2[O-])c1 | 14 µg/mL |
| CCCCc1cc2cnc(OC(CC)CC)nc2o1 | 98 µM |
| CCCCCCc1cc2cn([C@H]3C[C@H](O)[C@@H](CO)O3)c(=O)nc2o1 | >200 µM |
| COc1ccc2c(c1)OC1(C=C2)N(C)c2ccc(Cl)cc2C1(C)C | 32.1 µM |
| CCCCCCCCCCc1cc2cnc(OCc3ccc(OC)cc3)nc2o1 | >200 µM |
| COc1ccc(CS(=O)(=O)c2cccc[n+]2[O-])cc1 | 31 µg/mL |
| O=c1[nH]cnc2c1ncn2[C@@H]1O[C@H](CO)[C@H]1CO | 351 µg/mL |
| Nc1nc(=O)n([C@H]2C[C@H](O)[C@@H](CO)O2)cc1-c1cccs1 | 45 µg/mL |
| COc1ccc(CS(=O)(=O)c2cc(C(C)(C)C)cc[n+]2[O-])cc1 | 38 µg/mL |
| CCCCCCCCCCc1cc2cnc(OCCCCC)nc2o1 | >200 µM |
| COc1ccc(CS(=O)(=O)c2cccc[n+]2[O-])cc1OC | 41 µg/mL |
| Cc1ccc(/C=N/NC(=O)COc2cccc3ccccc23)cc1 | 80.1 µg/mL |
| CC1(C)c2ccccc2N(c2ccccc2)C12C=Nc1c(ccc3ccccc13)O2 | 96.3 µM |
| Cc1ccc(C)c(C(Sc2cccc[n+]2[O-])c2ccccc2)c1 | >20 µg/mL |
| O=C(COc1cccc2ccccc12)NN=Cc1cccc(Br)c1 | 48.6 µg/mL |
| O=[N+]([O-])c1cc(CS(=O)(=O)c2cccc[n+]2[O-])cc([N+](=O)[O-])c1 | 4.4 µg/mL |
| CCCCCCc1cc2cn([C@H]3C[C@H](O)[C@@H](CO)O3)c(=O)nc2s1 | >200 µM |
| O=C(COc1cccc2ccccc12)NN=Cc1c[nH]c2ccccc12 | >100 µg/mL |
| CCCC(Sc1cccc[n+]1[O-])c1cc(C)ccc1C | 1.3 µg/mL |
| CCCCCCCCCCc1cc2cnc(OC3CCCCC3)nc2o1 | >200 µM |
| Cc1ccc[n+]([O-])c1S(=O)(=O)Cc1cccc([N+](=O)[O-])c1C | 9.6 µg/mL |
| CC1(C)[C@@H](CCO)C[C@H]1n1cnc2c(N)ncnc21 | 40 µg/mL |
| CCCCCCOc1ccc(-c2cc3cn([C@H]4C[C@H](O)[C@@H](CO)O4)c(=O)nc3o2)cc1 | >200 µM |
| COc1ccc(C)cc1CS(=O)(=O)c1cccc[n+]1[O-] | 43 µg/mL |
| COc1cc(C=NNC(=O)COc2cccc3ccccc23)cc(OC)c1OC | 47.9 µg/mL |
| Cc1ccc(C)c(C(C)(Cl)S(=O)(=O)c2cccc[n+]2[O-])c1 | >20 µg/mL |
| CCCCCCCCCCc1cc2cn(CC3CCCCC3)c(=O)nc2o1 | >200 µM |
| Cc1ccc(C)c(C(C)S(=O)(=O)c2ccccn2)c1 | 3.1 µg/mL |
| CC1(C)[C@@H](CCO)C[C@H]1n1nnc2c(Cl)nc(N)nc21 | >50 µg/mL |
| O=S(=O)(Cc1c(Cl)c(Cl)c(Cl)c(Cl)c1Cl)c1cccc[n+]1[O-] | 1.2 µg/mL |
| COc1ccc2c(c1)C=CC1(O2)N(C)c2ccccc2C1(C)C | <6.5 µM |

A second listing of 5 rows from above:

SMILES	value
CCCCCCCCCCc1cc2cnc(OC3CCCCC3)nc2o1	>200 µM
Cc1ccc[n+]([O-])c1S(=O)(=O)C(C)c1ccccc1Cl	38 µg/mL
Cn1ccnc1-c1cn([C@H]2C[C@H](O)[C@@H](CO)O2)c(=O)[nH]c1=O	>200 µg/mL
CC1(C)[C@@H](CCO)C[C@H]1n1cnc2c(N)ncnc21	40 µg/mL
Cc1ccc(-c2cc3cn([C@H]4C[C@H](O)[C@@H](CO)O4)c(=O)nc3o2)cc1	>200 µM